Measurements published in article PMC5056392, “CD4-mimetic sulfopeptide conjugates display sub-nanomolar anti-HIV-1 activity and protect macaques against a SHIV162P3 vaginal challenge” (Scientific Reports, 2016).
Where “and” joins values, the source holds several entries; their conditions need not be identical. Equal values may be shown once.

What was measured:
HIV-1 MN = format: cell-based; conditions: Table 1; B-X4; TZM-bl cells, 48 h, luciferase; means of two experiments
Method in brief: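 TZM-bl cells (CD4/CCR5/CXCR4, HIV LTR-luciferase reporter) with 30 μg/mL DEAE dextran were preincubated with 10-fold serial dilutions of mCD4 conjugates, then infected with virus at 50, 100 or 200 TCID50. After 48 h at 37 °C, luciferase RLU was read as % of compound-free control; IC50 by non-linear regression.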

HIV-1 pREJO.c/2864 cl2 = format: cell-based; conditions: Table 1; T/F B-R5; TZM-bl cells, 48 h, luciferase; means of two experiments
TZM-bl cells = experiment: WST-1 cytotoxicity assay; format: cell-based; conditions: Table 1, 50% cytotoxic concentration, WST-1, 48 h
Method in brief: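 TZM-bl cells (10^4 cells/well) exposed to serially diluted compound for 48 h. Viability by WST-1 reduction, absorbance at 450 nm, relative to untreated cultures; CC50 from non-linear regression.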

[1] = Pharmacokinetics in vaginal fluid after vaginal gel application; format: in vivo, cynomolgus macaques (Macaca fascicularis); conditions: bioassay against HIV-1 IIIB in TZM-bl cells
Method: A PK study of the mCD4.1-PS1 was conducted in naïve female cynomolgus macaques pre-treated intramuscularly with 30 mg medroxyprogesterone acetate (Depo-Provera, Pfizer) 4–5 weeks before the gel application. Two ml of HEC gels containing mCD4.1-PS1 at 36, 144 or 600 μM, were applied into the vaginal cavity with a French catheter connected to ready-to-use syringe (two females per group). Vaginal fluids were collected before and at various time points after gel administration, by placing pre-weighted Weck-Cel sponges (Beaver Visitec International) into the vagina. Upon removal, sponges were reweighed to calculate the collected vaginal fluid weight and sponge contents were eluted in PBS containing 0.25 M NaCl and protease inhibitors (Calbiochem). Eluates were stored at −80 °C prior to analysis. The mCD4.1-PS1 activity remaining in these samples, diluted to at least 3% to eliminate any cytotoxicity, was measured in TZM-bl cells using the HIV-1 IIIB strain that constitutes an excellent reporter of the compound activity. Animals BL133 and BO731 included in the PK study at 36 μM were re included in the PK study at 144 μM.
CVL were cleared from any cell-debris by centrifugation at 1,500 rpm during 10 minutes, prior to freezing at −80 °C. After thawing, TMZbl cells (10^4 cells/well) were incubated with a serial 10-fold dilution (starting from 3% down to 0.00003%) of each CVL for 30 minutes. Subsequently, 50 TCID50 of IIIB virus was added to the cells. All conditions were done in triplicates. The plates were incubated for 48 hours (37 °C, 5% CO2). Subsequently, 120 μL of supernatants were removed, 75 μl of the luciferase substrate Steadylite (Perkin Elmer, Life Sciences, Zaventem, Belgium) were added to the wells and the plates were incubated at room temperature on an orbital shaker for 10 minutes. Next, the luciferase activity was measured using a TriStar LB941 luminometer (Berthold Technologies GmbH & Co. KG., Bad Wildbad, Germany) and expressed as relative light units (RLU) and expressed as a percentage of that in positive control wells. IC50 were calculated in GraphPad Prism 5.03 using non-linear regression (GraphPad Software, San Diego, CA, USA) and used to estimate the compound concentrations in CVL.

SHIV162P3 = experiment: Vaginal challenge of macaques with SHIV162P3; format: in vivo, cynomolgus macaques (Macaca fascicularis); conditions: for protection: 2 ml vaginally 1 h before ~10 AID50 SHIV162P3 in 50% human seminal plasma, 6 animals
Method: SHIV162P3 was obtained from the NIH AIDS Research and Reference Reagent Program[57][58] and mixed with 50% human seminal plasma. This mixture was used at 10 animal infectious doses 50% (AID50) to vaginally infect 18 naïve female cynomolgus macaques, which had been pre-treated with Depo-Provera 4–5 weeks before the challenge. One hour before challenge, six macaques received an intravaginal dose of 2 mL of mCD4.1-PS1 containing HEC gel at 144 μM. Six other macaques received the same dose of HEC gel containing 600 μM of mCD4.1-PS1 and the other six macaques were dosed with HEC gel without mCD4.1-PS1 (placebo group). Blood was collected at different time points after challenge to measure plasma viremia by a quantitative RT-PCR assay using primers amplifying the gag regions of SIVmac251. The detection limit of this assay is 60 RNA copies/mL and the quantification limit is 111 RNA copies/mL. For animals with undetectable viremia, lymph nodes were sampled on week 9 after challenge to measure the SHIV DNA copy numbers by quantitative PCR. Detection limit for this assay is 10 copies per million of cells. Anti-SHIV binding antibodies were measured in serum using standard commercial ELISA for the detection of HIV-1 and HIV-2 antibodies (Genscreen, Bio-Rad). Animals were considered negative if tested negative for plasma viremia and antibodies over the course of the study (11 weeks of follow-up after challenge) and negative for proviral DNA in lymph nodes.

[2] = 2 ml 1.5% HEC gel at 600 μM, two animals

## CC(C)C[C@@H]1NC(=O)CNC(=O)[C@H](CC(C)C)NC(=O)[C@H](CO)NC(=O)[C@H](CO)NC(=O)[C@@H]2CSSC[C@@H](C(=O)N[C@H](C(N)=O)C(C)C)NC(=O)[C@H](C)NC(=O)[C@@H]3CSSC[C@H](NC(=O)[C@H](CCCCNC(=O)CCOCCOCCNC(=O)CCN4C(=O)CC(SCCC(=O)NCCCC(=O)N[C@@H](CO)C(=O)N[C@@H](Cc5ccc(OS(=O)(=O)O)cc5)C(=O)N[C@@H](CC(=O)O)C(=O)N[C@@H](Cc5ccc(OS(=O)(=O)O)cc5)C(=O)N[C@@H](CO)C(=O)N[C@@H](Cc5ccc(OS(=O)(=O)O)cc5)C(=O)N[C@@H](CC(=O)O)C(=O)N[C@@H](Cc5ccc(OS(=O)(=O)O)cc5)C(=O)N[C@@H](CO)C(=O)N[C@@H](Cc5ccc(OS(=O)(=O)O)cc5)C(=O)N[C@@H](CC(=O)O)C(=O)N[C@@H](Cc5ccc(OS(=O)(=O)O)cc5)C(=O)N[C@@H](CO)C(=O)O)C4=O)NC(=O)[C@H](Cc4c[nH]cn4)NC(=O)[C@H](CC(C)C)NC(=O)[C@H](CC(N)=O)NC(=O)CCSSC[C@H](NC(=O)[C@H](CCCNC(=N)N)NC(=O)CNC(=O)[C@H](CC(C)C)NC1=O)C(=O)N[C@@H](C)C(=O)NCC(=O)N[C@@H](CO)C(=O)N[C@@H](Cc1ccc(-c4ccccc4)cc1)C(=O)N3)C(=O)N[C@@H](CCC(N)=O)C(=O)N[C@@H](CC(C)C)C(=O)N[C@@H](CCCNC(=N)N)C(=O)N2 (stereo partly drawn) [mCD4.1-PS1]
HIV-1 MN
  IC50: 0.09 nM
HIV-1 pREJO.c/2864 cl2
  IC50: 0.66 nM
TZM-bl cells
  CC50: >37500 nM
[1]; 2 ml 1.5% HEC gel at 36 μM
  active concentration in vaginal fluid, after the first two hours: below 1 μM
[1]; 2 ml 1.5% HEC gel at 36 μM, only in one animal of two
  active concentration in vaginal fluid, first two hours: approx. 8 μM
[1]; 2 ml 1.5% HEC gel at 144 μM, two animals
  active concentration in vaginal fluid after 2 h: above 25 μM
[1]; [2]
  active concentration in vaginal fluid at 24 h: approx. 3.5 μM
  active concentration in vaginal fluid during the first 6 h: above 150 μM
SHIV162P3; HEC gel at 144 μM, 2 ml vaginally 1 h before challenge
  animals protected (SHIV RNA negative and seronegative): 3 out of 6 and 3/6
SHIV162P3; HEC gel at 144 μM, 11 weeks follow-up
  protection: 50%
SHIV162P3; HEC gel at 600 μM, 2 ml vaginally 1 h before challenge
  animals protected: 5/6
SHIV162P3; HEC gel at 600 μM, Fisher exact test p = 0.0152 vs placebo
  protection: 83%
